Laboratory results reported in patent EP1352977A2, “Novel Desulfitobacterium strain for the degradation of chloroalkenes” (UNIVERSITEIT GENT, priority 2002, dated 2003).

System: Desulfitobacterium strain DCA1
Assay: Substrate range determination: growth on and dechlorination product from chlorinated substrates
Assay type: cell-based, Desulfitobacterium dichloroeliminans strain DCA1
Conditions: for Product: substrate concentration 400 µM

Q: Which “dechlorination product” value does the source give for `C[C@H](Cl)[C@@H](C)Cl` [meso-2,3-DCB, meso-2,3-dichlorobutane] here?
A: trans-2-butene

Q: What about the Product of the same compound?
A: E-but-2-ene

Q: With `CC(Cl)C(C)Cl` [L-2,3-DCB, L-2,3-dichlorobutane] as the compound, how does the Product read?
A: Z-but-2-ene
